± gives the expanded uncertainty stated by the source.
Tests used:
[1] = refractive index (Na D-line) (dimensionless); settings: 293.2 K; 101.33 kPa; Liquid; Standard Abbe refractometry
[2] = 293.2 K; 101.33 kPa; Liquid; Vibrating tube method

## CCCCOP(=O)(OCCCC)OCCCC [tributyl phosphate]
[1]
  refractive index: 1.4235 ± 0.0006
[2]
  mass density: 972.7 ± 0.81 kg/m3

— the NIST ThermoML archive (doi:10.1016/j.fluid.2014.10.043)
